Laboratory results taken from the supplement of paper PMC3578754.
Fold change is the IC50 on the isolate divided by the IC50 on a reference virus; 1 = unchanged, higher = more resistant. Changes are given against the subtype B consensus. No active / inactive call. The values were gathered from many studies (numbered anew) with different assays, which the source does not name. Most viruses are clinical isolates; some are laboratory strains or clones with known resistance changes. Isolates with mixed residues are left out; stretches that were not sequenced show no change. Round top values that many isolates share are read here as limits; other very high values and 0.1 may be limits too.

Experiments:
Assay in all cases: fold change of IC50 against reference virus; higher = more resistant
[1] = compound: CC(C)Nc1cccnc1N1CCN(C(=O)c2cc3cc(NS(C)(=O)=O)ccc3[nH]2)CC1 [delavirdine]
Protocol: (§1)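 Cell-culture drug susceptibility tests of virus bearing the reverse transcriptase of each isolate, gathered from many studies.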

[2] = compound: C[C@H](Cn1cnc2c(N)ncnc21)OCP(=O)(O)O [tenofovir]
Protocol: as §1

[3] = compound: Cc1ccnc2c1NC(=O)c1cccnc1N2C1CC1 [nevirapine]
Protocol: as §1

[4] = compound: Cc1cn([C@H]2C=C[C@@H](CO)O2)c(=O)[nH]c1=O [stavudine]
Protocol: as §1

[5] = compound: Cc1cn([C@H]2C[C@H](N=[N+]=[N-])[C@@H](CO)O2)c(=O)[nH]c1=O [zidovudine]
Protocol: as §1

[6] = compound: Nc1ccn([C@H]2CC[C@@H](CO)O2)c(=O)n1 [zalcitabine]
Protocol: as §1

[7] = compound: Nc1nc(=O)n([C@@H]2CS[C@H](CO)O2)cc1F [emtricitabine]
Protocol: as §1

[8] = compound: Nc1nc(NC2CC2)c2ncn([C@H]3C=C[C@@H](CO)C3)c2n1 [abacavir]
Protocol: as §1

[9] = compound: O=C1Nc2ccc(Cl)cc2[C@@](C#CC2CC2)(C(F)(F)F)O1 [efavirenz]
Protocol: as §1

[10] = compound: O=c1[nH]cnc2c1ncn2[C@H]1CC[C@@H](CO)O1 [didanosine]
Protocol: as §1

Test System | fold change of IC50 against reference virus [1] | fold change of IC50 against reference virus [2] | fold change of IC50 against reference virus [3] | fold change of IC50 against reference virus [4] | fold change of IC50 against reference virus [5] | fold change of IC50 against reference virus [6] | fold change of IC50 against reference virus [7] | fold change of IC50 against reference virus [8] | fold change of IC50 against reference virus [9] | fold change of IC50 against reference virus [10]
HIV-1 isolate 1178 (reverse transcriptase changes: P4S M41L A62V A98G K122E D123N K166R M184V G196E I202V L210W R211K T215Y L228R D237N V245E A272P E297K, study 15) | 0.4 | 1.3 | 3.7 | 1.1 | 27 | 1.1 | ≥ 200 | 4.9 | 1.4 | 1.1
HIV-1 isolate 585 (reverse transcriptase changes: V60I R83K K166R I178L G196E V245E A272P, study 15) | 2 | 0.9 | 1.8 | 0.9 | 0.9 | 0.9 | 0.8 | 0.9 | 1.2 | 0.9
HIV-1 isolate 64 (reverse transcriptase changes: P4S E6D M41L R172K Y188L V189I Q197K I202V H208Y R211K T215Y V245E A272P E297A, study 15) | 0.3 | 0.8 | ≥ 400 | 1.4 | 3 | 1.4 | 1.8 | 1.4 | 11 | 0.9
HIV-1 isolate 601 (reverse transcriptase changes: K20R V35M T39A K49R I63K A98S E138A K166R E169D K173Q V179I Y181I M184V L210W R211K T215Y A272P, study 15) | 20 | 0.4 | ≥ 400 | 0.9 | 0.7 | 0.9 | ≥ 200 | 3.9 | 0.5 | 1.4
HIV-1 isolate 766 (reverse transcriptase changes: M41L V60I D67N T69N K70R K101H D123E I142V K166R D177E M184V G196E T200I I202V R211K T215F K219Q A272P K277R T286A I293V E297Q I329V, study 83) | 1.8 | 1.3 | 1.5 | 2.1 | 16 | – | ≥ 200 | 6.1 | 0.7 | 1.9
HIV-1 isolate 539 (reverse transcriptase changes: P19S K101P K103N E138G E169K K173E D177E I178M V179I G196E V245E A272P E297K, study 15) | 200 | 0.7 | 300 | 1 | 0.3 | – | 0.6 | 0.8 | ≥ 500 | 1
HIV-1 isolate 66 (reverse transcriptase changes: T69S K70R A98S K103N K122E I135L Q174H D177G V179I Y188L T200A I202V R211K F214L K219Q A272P E297A, study 15) | 500 | 1.8 | 500 | 1.1 | 11 | – | 1.1 | 1.4 | ≥ 500 | 0.9
HIV-1 isolate 1630 (reverse transcriptase changes: R83K K101E D123E I202V A272P K281R P294T E297R, study 15) | 3.2 | 0.9 | 6.2 | 0.9 | 0.9 | – | 0.7 | 0.7 | 3.6 | 0.7
HIV-1 isolate 691 (reverse transcriptase changes: M41L V60I D67N K70R K122E D123S I135V K166R D177E T200I E203D R211K F214L T215F D218E K219Q L228H V245M A272P, study 15) | 0.4 | 5.5 | 0.3 | 2.6 | 490 | – | 6.4 | 3.6 | 0.3 | 2
HIV-1 isolate 1130 (reverse transcriptase changes: V35I I135L I142V Q145E M184V T200A R211K D250E T286A E297R L301I, study 15) | 2.3 | 0.6 | 1.2 | 0.9 | 0.5 | – | 300 | 4.1 | 1.4 | 1.5
HIV-1 isolate 636 (reverse transcriptase changes: K32R V35E M41L T69A R83K K101H D123E I142V M164I K166R E169D I178M Y181C M184V H221Y L228H V241I A272S K277R E297K, study 15) | 200 | 0.6 | 300 | 0.8 | 0.5 | – | ≥ 200 | 2.4 | 13 | 1.7
HIV-1 isolate 1048 (reverse transcriptase changes: V35I D67N T69D K70R K103N K122E I135L D177G Y181C T200A H208Y R211K T215F D218E K219Q A272P L283I I293V E297R, study 65) | ≥ 250 | 0.9 | ≥ 400 | 1.6 | 9.1 | – | 4.3 | 1.3 | 29 | 0.9
HIV-1 isolate 563 (reverse transcriptase changes: M41L K122E D123E I142V K166R M184V Q207E R211K T215Y V245E A272P K281R E297K, study 15) | 0.3 | 1.1 | 0.6 | 1.6 | 4.9 | – | 300 | 5.6 | 0.3 | 1.7
HIV-1 isolate 698 (reverse transcriptase changes: K64R D67N K70R I135T V179I M184V Q197K T200A Q207D R211K T215Y K219E V245K K277R I293V, study 15) | 0.6 | 1.2 | 0.5 | 1.4 | 16 | – | ≥ 200 | 6 | 0.4 | 1.2
HIV-1 isolate 1073 (reverse transcriptase changes: E6K K20R V35M T39A M41L G45E D67N T69D V118I K122E D123E M184V L210W R211K T215Y L228F A272P L282K E297K, study 15) | 0.1 | 0.9 | 0.2 | 2.7 | 2.7 | – | 300 | 6.2 | 0.2 | 1.9
HIV-1 isolate 907 (reverse transcriptase changes: M41L M184V Y188L T215Y, study 15) | 2.6 | 1 | 300 | 0.9 | 6 | – | ≥ 200 | 5 | 66 | 1.2
HIV-1 isolate 571 (reverse transcriptase changes: K20R E28K K32E T39A M41L E44D D67N V118I D123E I135K Q174R D177E M184V G196E T200A L210W R211K T215Y V245E E297K, study 15) | 0.1 | 1.3 | 0.2 | 2.4 | 35 | – | ≥ 200 | 6.1 | 0.3 | 1.6
HIV-1 isolate 1644 (reverse transcriptase changes: K11R K20R S68G R83K V118I D123E T165A D177E M184V T200I R211K F214L T215Y Q278E L283I V292I E297R, study 15) | 0.2 | 0.5 | 0.2 | 0.9 | 1.3 | – | 300 | 2.8 | 0.2 | 1.2
HIV-1 isolate 787 (reverse transcriptase changes: V60I K103N K122E D123E I142V G196E A272P K281R T286A P294A E297K, study 15) | 37 | 0.9 | 25 | 1 | 0.9 | – | 0.8 | 0.9 | 12 | 0.8
